Results of unrelated studies side by side (data: NIAID ChemDB).

Common to all: toxicity to cultured cells; measure: CC50

Lines come from different laboratories, so protocols vary. Blank or dashed fields: not listed here. CCn is the concentration with n% toxicity to the cells.

smiles | read by | cell line | value
Nc1nc(N)c2ncn(C[C@@H](CO)OCP(=O)(O)O)c2n1 | MTT | CBMC | 30 µM
O=c1c2cc(O)c(O)cc2oc2cc(O)cc(O)c12 | sulforhodamine / absorbance | HT-29 | >50 µM
CCCCC1CN(S(=O)(=O)C2CCOCC2)CCC12CCN(C1(C)CCN(C(=O)c3c(C)ncnc3C)CC1)CC2 | - | CEM-R5 | 0.006 µM
O=[N+]([O-])c1c(C2CCCCCC2)ncnc1N1CC[N+]2(CC1)CC[N+]1(CCN(c3ncnc(C4CCCCCC4)c3[N+](=O)[O-])CC1)CC2 | - | L929 | >271.1 µg/mL
CC(C)=CC[C@H]1C[C@]2(C[C@H]3CCC(C)(C)C=C3C)C(=O)C3=C(OC(C)(C)CC3)[C@@](C(=O)c3ccccc3)(C2=O)C1(C)C | sulforhodamine / absorbance | HT-29 | >50 µM
C/C(=N/NC(=S)N1CCN(c2ccccc2)CC1)c1nccs1 | - | VERO | 0.81 µg/mL
COC1=CC([C@@H]2c3cc4c(cc3[C@H](O)[C@@H]3COC(=O)[C@H]32)OCO4)=CC(=O)C1=O | - | HT-29 | 1.3 µM
COc1ccc2nc(N/N=C/c3ccccn3)cc(C)c2c1 | - | VERO | 0.54 µg/mL
Nc1cc(OCCOCP(=O)(O)O)ncn1 | - | HeLa S3 | <10 µM
Nc1ncnc2c1ncn2C[C@@H](CF)OCP(=O)(O)O | - | P3HR-1 | 160 µg/mL
CCn1c2ccc(N)cc2c2c(N)c(-n3cccc3)ccc21 | - | VERO | 8 µg/mL
COC(=O)[C@@H]1[C@H](c2cc(OC)c3nccnc3c2)c2cc3c(cc2C2=NOC[C@@H]21)OCO3 | - | HT-29 | 2.8 µM
O=[N+]([O-])c1c(Cl)ncnc1NN1CC[N+]2(CC1)CC[N+]1(CCN(Nc3ncnc(Cl)c3[N+](=O)[O-])CC1)CC2 | - | K562 | >311.4 µg/mL
CCOC(=O)c1ccc2c(c1)nc(-c1ccc(C(F)(F)F)cc1)n2CCN1CCCC1=O | MTT | Vero cell | >62.5 µg/mL
CN(C)c1nc(N)nc2c1ncn2CCOCP(=O)(O)O | - | P3HR-1 | 0.1 µg/mL
Nc1ncnc2c1cnn2CCOCP(=O)(O)O | - | HB611 | 32 µM
Nc1ncnc2c1ncn2[C@@H]1O[C@H](CO)C[C@@H]1O | - | U373-MG | 37 µg/mL
CC(C)=CCC[C@@H](C)[C@@H]1CC[C@]2(C)C3=C(CC[C@@]12C)[C@@]1(C)CC[C@H](O)C(C)(C)[C@@H]1CC3 | sulforhodamine / absorbance | ASK (Atlantic salmon kidney) | >50 µM
C[C@]12C=CC(=O)C=C1CC[C@@H]1C2=CC[C@]2(C)[C@@H](C(=O)CN3CCN(c4cc(N5CCCC5)nc(N5CCCC5)n4)CC3)CC[C@@H]12 | luminescence | n4mBid | >30 µM
Cc1ccc(Nc2nc3c(s2)C(=O)c2ccccc2C3=O)c(C)c1 | - | VERO | 5 µg/mL
O=C(c1ccc(OCCN2CCCCC2)cc1)c1c(-c2ccc(O)cc2)sc2cc(O)ccc12 | luminescence | n4mBid | 7 µM
C[C@H](Cn1cnc2c(N)ncnc21)OCP(=O)(O)O | - | P3HR-1 | >100 µg/mL
O=c1[nH]c(=O)n([C@H]2C[C@H](O)[C@@H](CO)O2)cc1/C=C/Br | MTT | CBMC | 201 µM
O=C1c2c(O)cc(O)cc2O[C@@H](c2ccc(O)cc2)[C@@H]1c1c(O)cc(O)c2c(=O)cc(-c3ccc(O)c(O)c3)oc12 | sulforhodamine / absorbance | ASK (Atlantic salmon kidney) | >50 µM
Cc1nn(C(=S)S)c(C)c1N=Nc1ccccc1Cl | - | VERO | >10 µg/mL
OC(CCN1CCCCC1)(c1ccccc1)C1CC2C=CC1C2 | luminescence | n4mBid | 30 µM
CCOC(=O)c1ccc2c(c1)nc(-c1ccc(OC(F)(F)F)cc1)n2CCN1CCCC1=O | MTT | Vero cell | >62.5 µg/mL
CCOC(=O)c1nc2nc(Cl)c(Cl)nc2[nH]1 | - | VERO | 12.45 µg/mL
CCOC(=O)c1ccc2nc(-c3cncc(-c4ccc(F)cc4)c3)[nH]c2c1 | MTT | Vero cell | >62.5 µg/mL
Nc1ccn(C[C@@H](CO)OCP(=O)(O)O)c(=O)n1 | MTT | HSB-2 | 42 µM
CO[C@H]1/C=C/O[C@@]2(C)Oc3c(C)c(O)c4c(O)c(c5sc(N)nc5c4c3C2=O)NC(=O)/C(C)=C\C=C\[C@H](C)[C@H](O)[C@@H](C)[C@@H](O)[C@@H](C)[C@H](OC(C)=O)[C@@H]1C | - | VERO | >10 µg/mL
COC(=O)N[C@H](C(=O)N[C@@H](Cc1ccccc1)[C@@H](O)CN(Cc1ccc(-c2ccccn2)cc1)NC(=O)[C@@H](NC(=O)OC)C(C)(C)C)C(C)(C)C | MTT | KG-1-C | >100 µM
COc1ccc2c(c1)Sc1c(ccc3ccccc13)N2CCCN(C)C | - | VERO | 6 µg/mL
O=C(CCCc1ccccc1)N1CC[N+]2(CC1)CC[N+]1(CCN(C(=O)CCCc3ccccc3)CC1)CC2 | - | K562 | 235.4 µg/mL
CCCCC1CN(S(=O)(=O)c2cn(C)cn2)CCC12CCN(C1(C)CCN(C(=O)c3c(C)ncnc3C)CC1)CC2 | - | CEM-R5 | 0.027 µM
Nc1ncnc2c1ncn2CC(COCP(=O)(O)O)OCP(=O)(O)O | - | HB611 | >100 µM
COC(=O)[C@@H]1[C@H](c2cc(OC)c3nc4cc(C)c(C)cc4nc3c2)c2cc3c(cc2C2=NOC[C@@H]21)OCO3 | - | HT-29 | 1 µM
O=[N+]([O-])c1ccc(N2CC[N+]3(CC2)CC[N+]2(CCN(c4ccc([N+](=O)[O-])cc4[N+](=O)[O-])CC2)CC3)c([N+](=O)[O-])c1 | - | GMK | >317.7 µg/mL
CN(C)CCCNc1ccc2ncn3c4ccccc4c(=O)c1c23 | - | VERO | 3.92 µg/mL
C=C[C@@]1(C)CC(=O)[C@]2(O)[C@@]3(C)[C@@H](O)CCC(C)(C)[C@@H]3[C@H](O)[C@H](OC(C)=O)[C@@]2(C)O1 | luminescence | n4mBid | >30 µM
CCCCC1CN(S(=O)(=O)C2CC2)CCC12CCN(C1(C)CCN(C(=O)c3c(C)ncnc3C)CC1)CC2 | - | CEM-R5 | 0.022 µM
Nc1ncnc2c1ncn2C[C@@H](CO)OCP(=O)(O)O | - | H4 | 20 µg/mL
Nc1ccc2nc3ccc(N)cc3[n+](-c3ccccc3)c2c1 | - | VERO | 25.11 µg/mL
CCOC(=O)c1ccc2c(c1)nc(-c1ccc(OC)cc1)n2CCN1CCCC1=O | MTT | Vero cell | >62.5 µg/mL
O=c1cc(-c2ccc(Oc3c(O)cc4oc(-c5ccc(O)cc5)cc(=O)c4c3O)cc2)oc2cc(O)cc(O)c12 | neutral red | BSC-1 | <11 µg/mL
C1CCNCC1.S=C(S)N1CCCCC1 | - | VERO | 8.6 µg/mL
CCOC(=O)c1ccc2c(c1)nc(-c1ccc([N+](=O)[O-])cc1)n2CCN1CCCOC1 | MTT | Vero cell | >62.5 µg/mL
COc1ncnc(N2CC[N+]3(CC2)CC[N+]2(CCN(c4ncnc(OC)c4[N+](=O)[O-])CC2)CC3)c1[N+](=O)[O-] | - | GMK | >760.4 µg/mL
Nc1ccn(CC(CF)OCP(=O)(O)O)c(=O)n1 | - | HB611 | >200 µM
Cc1cc(OCCOCP(=O)(O)O)nc(N)n1 | - | HeLa S3 | <10 µM
COc1cc(OC)c2c(=O)c3c(O)c4c(c(OC)c3oc2c1O)OC(C)(C)C=C4 | XTT / absorbance | 1A2 | >337 µM
COc1ccc(-c2cc(OC)c(O)c(OC)c2O)cc1 | XTT / absorbance | 1A2 | 390.9 µM
Nc1nc2c(ncn2COC(CO)CO)c(=O)[nH]1 | MTT | CBMC | 160 µM
Nc1ncc2ncn(CCOCP(=O)(O)O)c2n1 | - | HB611 | >100 µM
Cc1nc(N2CCC[N+]3(CC2)CC[N+]2(CCCN(c4nc(C)nc5c4no[n+]5[O-])CC2)CC3)c2c(no[n+]2[O-])n1 | - | L929 | >291.4 µg/mL
CN(C)/N=N/c1[nH]cnc1C(N)=O.[Cl][Cu][Cl] | - | VERO | 154.6 µg/mL
CC(C)=CCc1c(O)cc2oc3ccc(O)cc3c(=O)c2c1O | XTT / absorbance | 1A2 | 51.23 µM
O=c1[nH]cnc(N2CC[N+]3(CC2)CC[N+]2(CCN(c4nc[nH]c(=O)c4[N+](=O)[O-])CC2)CC3)c1[N+](=O)[O-] | - | K562 | 150 µg/mL
Nc1ncnc2c1ncn2CC(O)P(=O)(O)O | - | HB611 | >400 µM
COc1ccc(C[C@H](N)C(=O)N[C@H]2[C@@H](O)[C@H](n3cnc4c(N(C)C)ncnc43)O[C@@H]2CO)cc1 | - | VERO | 1.3 µg/mL
CC(=O)n1cc(CCN)c2cc(O)ccc21 | luminescence | n4mBid | >30 µM
COc1cc([C@@H]2c3cc4c(cc3[C@H](OC(C)=O)[C@@H]3COC(=O)[C@H]23)OCO4)cc(OC)c1O | - | P-388 | 0.11 µM
COc1cc2oc3c4c(ccc3c(=O)c2c2c1C=CC(C)(C)O2)OCO4 | XTT / absorbance | 1A2 | 50.63 µM
C[C@H]1[C@H](O)C(=O)CC2[C@]3(C)CC[C@@]4(C)C5CC(C)(C)CC[C@]5(C)CC[C@]4(C)C3CC[C@@]21C | sulforhodamine / absorbance | HT-29 | >50 µM
O=C1C[C@@H](c2ccc(O)cc2)Oc2cc(O)c(-c3c(O)cc4c(c3O)C(=O)C[C@@H](c3ccc(O)cc3)O4)c(O)c21 | visual reading | MA-104 | ~13 µg/mL
Nc1ccc2cc3[nH]c4cc(N)ccc4c3nc2c1 | - | VERO | <0.257 µg/mL
O=c1cc(-c2ccc(O)c(-c3c(O)cc4oc(-c5ccc(O)cc5)cc(=O)c4c3O)c2)oc2cc(O)cc(O)c12 | visual reading | MA-104 | 56 µg/mL
Nc1cc(=O)n(CCOCP(=O)(O)O)c(N)n1 | - | L1210 | <10 µM
CO[C@@]12[C@H](COC(N)=O)C3=C(C(=O)C(C)=C(N)C3=O)N1C[C@H]1[C@@H]2N1C(=O)c1ccc(Cl)cc1 | - | VERO | 1.36 µg/mL
C[C@H](Cn1cnc2ncnc(N(C)C)c21)OCP(=O)(O)O | - | P3HR-1 | 45 µg/mL
COc1ccc(-c2nc3c(=O)n(C)c(=O)nc-3n(C)n2)cc1OC | - | VERO | 1.09 µg/mL
Nc1cc(SCCOCP(=O)(O)O)nc(N)n1 | - | L929 | <10 µM
CCN(CC)CCCNc1cc(OC)cc2nc3cc(Cl)ccc3nc12.Cl.Cl | - | VERO | 1.1 µg/mL
CC(C)CN(C[C@@H](O)[C@H](Cc1ccccc1)NC(=O)O[C@H]1CCOC1)S(=O)(=O)c1ccc(N)cc1 | MTT | TM-31 | >100 µM
COc1cc([C@@H]2c3cc4c(cc3[C@H](OC(C)=O)[C@@H]3COC(=O)[C@@H]23)OCO4)cc(OC(C)=O)c1OC(C)=O | - | HT-29 | 2.2 µM
CC(/C=C/c1ccccc1)=N\NC(=O)c1ccncc1 | - | VERO | 5.4 µg/mL

For reference, 4 entries again:

smiles,read by,cell line,value
CO[C@H]1/C=C/O[C@@]2(C)Oc3c(C)c(O)c4c(O)c(c5sc(N)nc5c4c3C2=O)NC(=O)/C(C)=C\C=C\[C@H](C)[C@H](O)[C@@H](C)[C@@H](O)[C@@H](C)[C@H](OC(C)=O)[C@@H]1C,-,VERO,>10 µg/mL
O=C(CCCc1ccccc1)N1CC[N+]2(CC1)CC[N+]1(CCN(C(=O)CCCc3ccccc3)CC1)CC2,-,K562,235.4 µg/mL
CC(C)=CC[C@H]1C[C@]2(C[C@H]3CCC(C)(C)C=C3C)C(=O)C3=C(OC(C)(C)CC3)[C@@](C(=O)c3ccccc3)(C2=O)C1(C)C,sulforhodamine / absorbance,HT-29,>50 µM
COc1ncnc(N2CC[N+]3(CC2)CC[N+]2(CCN(c4ncnc(OC)c4[N+](=O)[O-])CC2)CC3)c1[N+](=O)[O-],-,GMK,>760.4 µg/mL